Reference: publication PMC6274284 (Molecules, 2016)

Columns and labels:
BrmGRX [1] = target: T1, BrmGRX (Brucella melitensis, UniProt Q8YJA2, C70S); conditions: 10 µM protein, 0.5 mM fragment, hit: Rel. STD% ≥5% downfield and/or ≥10% upfield; for MaxRel.STD BrmGRX: 6.2 °C; for STD screening result (set of binders / hit class): BrmGRX versus hGRX1
BrmGRX [2] = target: T1, BrmGRX; conditions: for CSPs at the zero time-point / Time for the reaction to run to completion: five-fold excess of compound; for Time for the reaction to run to completion: 25 °C
BrmGRX [3] = target: T1, BrmGRX; conditions: for Binding to BrmGRX monitored via 15N-HSQC: ambient temperature, zero NMR time, pH 6.5; for Size of CSPs against BrmGRX (15N-HSQC): RK207 analogs: 2 mM fragment, 0.25 mM 15N BrmGRX; for Binding to BrmGRX at lower pH: pH of 4.5
BrmGRX [4] = target: T1, BrmGRX; conditions: 0.5 mM each fragment in mixture, 10 µM BrmGRX
BrmGRX [5] = target: T1, BrmGRX; conditions: 4:1 compound to protein, 1.2 mM compound, 0.3 mM GRX, 12% DMSO, 4 days; not completely reproducible
BrmGRX [6] = target: T1, BrmGRX; conditions: BrmGRX versus hGRX1

In the case of COCc1cc(=O)oc2cc(N)ccc12 [RK411], the “MaxRel.STD BrmGRX” value (BrmGRX [1]) is reported as 4.2% and the “STD screening result (set of binders / hit class)” value (BrmGRX [1]) is reported as “hGRX1 selective”.

With C=CC(=O)NCc1ccn(-c2ccc(C(=O)OC)cc2)c1 [compound 5, Methyl 4-(3-(Acrylamidomethyl)-1H-pyrrol-1-yl)benzoate] the “CSPs at the zero time-point” value (BrmGRX [2]) was “no CSPs observed for any residues” and the “Time for the reaction to run to completion” value (BrmGRX [2]) was “less than 24 h”.

For COC(=O)c1ccc(-n2ccnc2)cc1, the “Binding to BrmGRX monitored via 15N-HSQC” value (BrmGRX [3]) was “did not bind”.

In the case of Nc1ccc(-n2cncn2)cc1, the “Size of CSPs against BrmGRX (15N-HSQC)” value (BrmGRX [3]) is reported as “weaker CSPs”.

O=C(O)c1ccc(-n2cncn2)cc1 was tested, and the “Binding to BrmGRX at lower pH” value (BrmGRX [3]) was “do not bind”.

Nc1ccc(CN2CCOCC2)cc1 [RK428] was tested, and the “MaxRel.STD BrmGRX” value (BrmGRX [1]) was 0.5% and the “STD screening result (set of binders / hit class)” value (BrmGRX [1]) was “Non-binders”.

In the case of O=C(O)c1ccc(-n2cccc2)cc1 [RK207], the “MaxRel.STD BrmGRX” value (BrmGRX [1]) is reported as 5.7%, the “STD screening result (set of binders / hit class)” value (BrmGRX [1]) is reported as “BrmGRX selective” and the “trNOE binding result, BrmGRX” value (BrmGRX [4]) is reported as “selective for BrmGRX”. The “Size of CSPs against BrmGRX (15N-HSQC)” value (BrmGRX [3]) was “maximum CSPs” and the “Binding to BrmGRX at lower pH” value (BrmGRX [3]) was “do not bind”.

COCc1cc(=O)oc2cc(O)c(Cl)cc12 [RK450] was tested, and the “MaxRel.STD BrmGRX” value (BrmGRX [1]) was 2.7% and the “STD screening result (set of binders / hit class)” value (BrmGRX [1]) was “hGRX1 selective”.

With COC(=O)c1cccc2cc[nH]c12 [RK028] the “MaxRel.STD BrmGRX” value (BrmGRX [1]) was 28.3% and the “STD screening result (set of binders / hit class)” value (BrmGRX [1]) was “Non-specific”.

With O=C(O)c1ccc(-n2ccnc2)cc1 the “Binding to BrmGRX monitored via 15N-HSQC” value (BrmGRX [3]) was “found to bind”.

O=C(O)c1ccc(-c2cnco2)cc1 [RK036] was tested, and the “MaxRel.STD BrmGRX” value (BrmGRX [1]) was 1.3% and the “STD screening result (set of binders / hit class)” value (BrmGRX [1]) was “Non-binders”.

In the case of Nc1ccccc1N1CCNCC1 [RK155], the “STD screening result (set of binders / hit class)” value (BrmGRX [1]) is reported as “Non-Hits” and the “trNOE binding result, BrmGRX” value (BrmGRX [4]) is reported as “did not bind”.

For CC1(C)Cc2cccc(CO)c2O1, the “STD screening result (set of binders / hit class)” value (BrmGRX [1]) was “Non-Hits”.

For OCc1cc(-c2cccs2)[nH]n1 [RK126], the “MaxRel.STD BrmGRX” value (BrmGRX [1]) was 20.7% and the “STD screening result (set of binders / hit class)” value (BrmGRX [1]) was “Non-specific”.

In the case of acrylamide, the “Time for the reaction to reach completion” value (BrmGRX [2]; five-fold excess of unlinked acrylamide, same experimental conditions) is reported as “more than ten” and the “Inhibition of BrmGRX activity in HED assay” value (BrmGRX [5]) is reported as “Little reduction in activity”.

C=CC(=O)NCc1ccn(-c2ccc(C(=O)O)cc2)c1 was tested, and the “CSPs at the zero time-point” value (BrmGRX [2]) was “many residues that were associated with the unmodified RK207 binding site showed CSPs” and the “Time for the reaction to run to completion” value (BrmGRX [2]) was 168 to 192 h.

In the case of Nc1ccc(CN2CCS(=O)(=O)CC2)cc1, the “STD screening result (set of binders / hit class)” value (BrmGRX [1]) is reported as “Non-Hits”.

For O=C(O)c1ccc(-n2cccn2)cc1, the “Binding to BrmGRX at lower pH” value (BrmGRX [3]) was “do not bind”.

With OCc1ccc(-c2ccco2)cc1 the “trNOE binding result, BrmGRX” value (BrmGRX [4]) was “selective for BrmGRX”.

With Cn1nc(C(=O)O)cc1-c1ccccc1 [RK246] the “Selectivity for BrmGRX over hGRX1 on the basis of HSQC-monitored Kd” value (BrmGRX [6]) was “no significant selectivity”, the “MaxRel.STD BrmGRX” value (BrmGRX [1]) was 20.6% and the “STD screening result (set of binders / hit class)” value (BrmGRX [1]; listed as RK 246) was “BrmGRX Hit”. For the same compound, the “trNOE binding result, BrmGRX” value (BrmGRX [4]) was “selective for BrmGRX”.

With COC(=O)c1scc(C)c1N the “STD screening result (set of binders / hit class)” value (BrmGRX [1]) was “Non-Hits”.

COC(=O)c1ccc(-n2ccc(CN)c2)cc1 was tested, and the “Binding to BrmGRX monitored via 15N-HSQC” value (BrmGRX [3]) was “ineffective”.

Read-outs that look alike come from different tables or passages of the source.
